Assay results: patent publication US7060486B2 (priority 1998, dated 2006)

Assay: Batch culture corrosion loss of SAE 1018 steel in modified Baar's medium
Conditions: ampicillin 100 μg/mL added before D. vulgaris

In the case of `CC1(C)S[C@@H]2[C@H](NC(=O)[C@H](N)c3ccccc3)C(=O)N2[C@H]1C(=O)O` [ampicillin], the “mass loss less than when ampicillin was added after SRB” value (1 week) is reported as 40% and the “mass loss less than when ampicillin was added after SRB” value (3 weeks) is reported as 14%.
